Anti-infective test results gathered from many reports (values: NIAID ChemDB through PubChem).

All rows: whole-cell or culture tests; species: Candida albicans

Conditions beyond the fields shown may differ between rows.

compound	endpoint	method	strain or isolate	value
CO[C@H]1C[C@@H]2CC[C@@H](C)[C@@](O)(O2)C(=O)C(=O)N2CCCC[C@H]2C(=O)O[C@H]([C@H](C)C[C@@H]2CC[C@@H](C(=O)ON3CCOCC3)[C@H](OC)C2)CC(=O)[C@H](C)/C=C(\C)[C@@H](O)[C@@H](OC)C(=O)[C@H](C)C[C@H](C)CCCC/C=C/1C	MIC		10231	>100 µg/mL
Cc1c(C(=O)N2CCN(C)CC2)cc(-c2ccc([N+](=O)[O-])cc2)n1C	EC50		20 strains	>200 µg/mL
COc1cc(OC(C)C)ccc1C(=O)O	MIC		Clinical isolates	125–250 µg/mL
CCCCCCCCn1c(-c2ccc([N+](=O)[O-])cc2)cc(C(=O)N(CCO)CCO)c1C	MIC		20 strains	>200 µg/mL
CCCCCOc1ccc(-c2ccc(-c3ccc(C(=O)N[C@H]4CCCNC(=O)[C@@H]5C[C@H](NC(=O)CCC(=O)O)CN5C(=O)[C@H]([C@@H](C)O)NC(=O)[C@H](CCc5ccc(O)cc5)NC(=O)[C@@H]5C[C@@H](O)CN5C(=O)[C@H]([C@@H](C)O)NC4=O)cc3)cc2)cc1	MIC		ATCC 62376	0.78 µg/mL
Clc1ccc(C(Cn2ccnc2)OCc2csc3c(Cl)cccc23)c(Cl)c1	MIC50		16 strains	1 µg/mL
CCCCCOc1ccc(-c2ccc(-c3ccc(C(=O)N[C@H]4CCCNC(=O)[C@@H]5CCCCN5C(=O)[C@H]([C@@H](C)O)NC(=O)[C@H](CCc5ccc(O)cc5)NC(=O)[C@@H]5C[C@@H](O)CN5C(=O)[C@H]([C@@H](C)O)NC4=O)cc3)cc2)cc1	MIC		ATCC 38247	>100 µg/mL
Cc1ccc(-c2c3c(N)c4c(nc3nc3c2c(C)nn3-c2ccccc2)CCC4)cc1	MIC100	broth dilution / absorbance	CCC 125	62.5 µg/mL
COc1ccc([C@H]2SC(C)C(=O)N2c2nc(N3CCN(C)CC3)n[nH]2)cc1OC	MIC	broth dilution	A39	100 µg/mL
COc1ccc(-c2c3c(N)c4c(nc3nc3c2c(C)nn3-c2ccccc2)CCC4)cc1	MIC80	broth dilution / absorbance	ATCC 10231	250 µg/mL
Cc1cc(COc2ccc(Oc3ccc(Cl)cc3)cc2)n(O)c(=O)c1	MIC		TIMM2640	4 µg/mL
COc1cc(NC(C)CCCNC(=O)[C@@H](CCCN=C(N)N)NC(=O)[C@H](N)CCCN=C(N)N)c2nc(C(C)(C)C)ccc2c1	MIC	broth dilution		>20 µg/mL
CCC(C)n1ncn(-c2ccc(N3CCN(c4ccc(OC[C@H]5CO[C@](Cn6cncn6)(c6ccc(Cl)cc6Cl)O5)cc4)CC3)cc2)c1=O	MIC		Isolate CA-9	>8 µg/mL
COc1cc(NC(C)CCCNC(=O)CC(NC(=O)[C@H](N)CCCN)C(=O)O)c2ncccc2c1	MIC	broth dilution		>20 µg/mL
CC1S[C@H](c2ccc3c(c2)OCO3)N(c2nc(N3CCN(C)CC3)n[nH]2)C1=O	MIC	broth dilution	A39	3.12 µg/mL
CO[C@H]1C[C@@H]2CC[C@@H](C)[C@@](O)(O2)C(=O)C(=O)N2CCCC[C@H]2C(=O)O[C@H]([C@H](C)C[C@@H]2CC[C@@H](C(=O)ON(C)C)[C@H](OC)C2)CC(=O)[C@H](C)/C=C(\C)[C@@H](O)[C@@H](OC)C(=O)[C@H](C)C[C@H](C)CCCC/C=C/1C	MIC		10231	50 µg/mL
COc1cc(NC(C)CCCNC(=O)[C@@H](CCCN)NC(=O)[C@H](N)CCCN)c2nc(C(C)(C)C)ccc2c1	EC50	broth dilution		>20 µg/mL
CO[C@H]1[C@@H](OC(=O)OCc2ccccc2)[C@H](O)[C@H](OCC23C4C=C(C(C)C)C2(C(=O)O)C(C=O)(C4)[C@@H]2CC[C@@H](C)[C@H]23)O[C@@H]1C	MIC		1208	8 µg/mL
CCCCCCCOc1ccc(N2CCN(c3ccc(C(=O)N[C@H]4CCCNC(=O)[C@@H]5C[C@H](N)CN5C(=O)[C@H]([C@@H](C)O)NC(=O)[C@H](CCc5ccc(CO)cc5)NC(=O)[C@@H]5CCCN5C(=O)[C@H]([C@@H](C)O)NC4=O)cc3)CC2)cc1	MIC		ATCC 38247	3.12 µg/mL
O=C(OC[C@H]1CO[C@](Cn2ccnc2)(c2ccc(-c3ccccc3)cc2)O1)c1ccccc1	MIC50		44 strains	8 µg/mL
Cc1cc(-c2n[nH]c(C)c2N=O)no1	MFC			>200 µM
O=C1CS[C@H](c2ccccc2)N1c1nc(N2CCOCC2)n[nH]1	MIC	broth dilution	A39	10 µg/mL
Cc1c(Cl)[n+](=O)c2cc(Cl)ccc2n1[O-]	MIC		Clinical isolate 7	7.8 µg/mL
CO[C@@H]1C[C@H](C[C@@H](C)[C@@H]2CC(=O)[C@H](C)/C=C(\C)[C@@H](O)[C@@H](OC)C(=O)[C@H](C)C[C@H](C)/C=C/C=C/C=C(\C)[C@@H](N(O)C(=O)N(C)C)C[C@@H]3CC[C@@H](C)[C@@](O)(O3)C(=O)C(=O)N3CCCC[C@H]3C(=O)O2)CC[C@H]1C(=O)ON(C)O	MIC		442	100 µg/mL
Cc1ccc(-c2c3c(N)c4c(nc3nc3c2c(C)nn3-c2ccccc2)CCCC4)cc1	MIC50	broth dilution / absorbance	CCC 130	15.6 µg/mL
CCCCCCn1c(-c2ccc([N+](=O)[O-])cc2)cc(C(=O)N2CCN(C)CC2)c1C	MIC		20 strains	>200 µg/mL
CCCCn1nc(C)c(N=O)c1-c1cc(C)on1	MFC			22 µM
O=[n+]1c(Sc2ccccc2)c(CBr)n([O-])c2ccccc21	MIC		Clinical isolate 24	31.25 µg/mL
CCCCCOc1ccc(C(=O)O)c(O)c1	MIC		Clinical isolates	125–250 µg/mL
CC(=O)N1CCN(c2ccc(OC[C@H]3CO[C@](Cn4ccnc4)(c4ccc(Cl)cc4Cl)O3)cc2)CC1	MIC90		16 strains	8 µg/mL
CCCCCCCOc1ccc(N2CCN(c3ccc(C(=O)N[C@H]4CCCNC(=O)[C@@H]5C[C@H](N)CN5C(=O)[C@H]([C@@H](C)O)NC(=O)[C@H](CCc5ccc(C)cc5)NC(=O)[C@@H]5CCCN5C(=O)[C@H]([C@@H](C)O)NC4=O)cc3)CC2)cc1	MIC		ATCC 38247	6.25 µg/mL
CC(C)Oc1cc(O)cc(C(=O)O)c1	MIC		Clinical isolates	125–250 µg/mL
CC[C@@H]([C@H](C)O)n1ncn(-c2ccc(N3CCN(c4ccc(OC[C@@H]5CO[C@@](Cn6cncn6)(c6ccc(F)cc6F)C5)cc4)CC3)cc2)c1=O	MIC		Isolate CA-2	>4 µg/mL
Cc1cc(-c2cc(C)on2)n(CCO)n1	MIC			>200 µM
Cc1c(C(=O)N(CCO)CCO)cc(-c2ccc([N+](=O)[O-])cc2)n1-c1ccc(Cl)cc1	EC50		20 strains	>200 µg/mL
CCCCCCOc1ccc(C(=O)O)c(O)c1	MIC		Clinical isolates	125–250 µg/mL
COc1cc(NC(C)CCCNC(=O)CCC(NC(=O)[C@@H](N)CCCN)C(=O)O)c2nc(C(C)(C)C)ccc2c1	EC50	broth dilution		>20 µg/mL
CN(CCCC#CC(C)(C)C)c1cccc2c1CCC(=O)N2	MIC		Clinical isolate 4	15.6 µg/mL
C[C@H]1[C@H](O)[C@@H](C)/C=C/C=C/C=C/C=C/C=C/C=C/C=C/[C@H](O[C@@H]2O[C@H](C)[C@@H](O)[C@H](N)[C@@H]2O)C[C@@H]2O[C@](O)(C[C@@H](O)C[C@@H](O)CC[C@H](O)[C@@H](O)C[C@@H](O)CC(=O)O[C@H]1C)C[C@H](O)[C@H]2C(=O)O	MIC		ATCC 64549	0.25 µg/mL
CO[C@H]1C[C@@H]2CC[C@@H](C)[C@@](O)(O2)C(=O)C(=O)N2CCCC[C@H]2C(=O)O[C@H]([C@H](C)C[C@@H]2CC[C@@H](C(=O)ON(C)OC)[C@H](OC)C2)CC(=O)[C@H](C)/C=C(\C)[C@@H](O)[C@@H](OC)C(=O)[C@H](C)C[C@H](C)CCCC/C=C/1C	MIC		442	50 µg/mL
Cc1cc(-c2cc(C)n(C)n2)no1	MIC			>200 µM
Cc1ccc(-c2c3c(N)c4c(nc3nc3c2c(C)nn3-c2ccccc2)CCCCC4)cc1	MIC80	broth dilution / absorbance	CCC 125	62.5 µg/mL
OC[C@H]1CO[C@](Cn2ccnc2)(c2ccc(-c3ccccc3)cc2)O1	EC50		44 strains	64 µg/mL
COc1cc(NC(C)CCCNC(=O)[C@H](CCCN=C(N)N)NC(=O)[C@@H](N)CCCN=C(N)N)c2ncccc2c1	EC50	broth dilution		>20 µg/mL
CN1CCN(c2n[nH]c(N3C(=O)CS[C@@H]3c3ccc4c(c3)OCO4)n2)CC1	MIC	broth dilution	A39	1.56 µg/mL
CCCCCCCCCCn1c(-c2ccc([N+](=O)[O-])cc2)cc(C(=O)N(CCO)CCO)c1C	MIC		20 strains	>200 µg/mL
COc1cc(NC(C)CCCNC(=O)CCC(NC(=O)[C@@H](N)CCCN=C(N)N)C(=O)O)c2nc(C(C)(C)C)ccc2c1	MIC	broth dilution		>20 µg/mL
CCCCCOc1ccc(-c2ccc(-c3ccc(C(=O)N[C@H]4CCCNC(=O)[C@@H]5[C@H](N)CCN5C(=O)[C@H]([C@@H](C)O)NC(=O)[C@H](CCc5ccc(O)cc5)NC(=O)[C@@H]5C[C@@H](O)CN5C(=O)[C@H]([C@@H](C)O)NC4=O)cc3)cc2)cc1	MIC		ATCC 62376	0.2 µg/mL
Cc1c(Sc2ccccc2)[n+](=O)c2cc(C(F)(F)F)ccc2n1[O-]	MIC		Clinical isolate 4	15.6 µg/mL
Cc1cc(-c2c(N=O)c(C)nn2-c2ccccc2)no1	MFC			>200 µM
CC(=O)N1CCN(c2ccc(OC[C@H]3CO[C@](Cn4ccnc4)(c4ccc(-c5ccccc5)cc4)O3)cc2)CC1	EC50		44 strains	>256 µg/mL
COc1cc(NC(C)CCCNC(=O)CC(NC(=O)[C@H](N)CCCCN)C(=O)O)c2ncccc2c1	EC50	broth dilution		>20 µg/mL
CS(=O)(=O)OC[C@H]1CO[C@](Cn2ccnc2)(c2ccc(-c3ccccc3)cc2)O1	MIC90		44 strains	>256 µg/mL
CCCCCOc1ccc(-c2ccc(-c3ccc(C(=O)N[C@H]4CCCNC(=O)[C@@H]5C[C@H](N=C(N)N)CN5C(=O)[C@H]([C@@H](C)O)NC(=O)[C@H](CCc5ccc(O)cc5)NC(=O)[C@@H]5C[C@@H](O)CN5C(=O)[C@H]([C@@H](C)O)NC4=O)cc3)cc2)cc1	MIC		ATCC 62376	0.39 µg/mL

a–b is a range or a potency band. A number after MIC or MFC names an inhibition level or a share of isolates. ECn is the concentration giving n% inhibition of infection, replication or growth. Blank or dashed fields: not listed here.